Data reported in article PMC3679007 (PLoS ONE, 2013).

Target: clade 2.1 HPAI H5N1 isolates from Indonesia (neuraminidase) (Influenza A virus, UniProt F5HQR3)
Conditions: read-out: IC50, Mean; Batch 2; log10 transformed, back transformed

oseltamivir
IC50: 0.0233 µM
